Paper PMC5291005, “Listeria monocytogenes 10403S Arginine Repressor ArgR Finely Tunes Arginine Metabolism Regulation under Acidic Conditions” (Frontiers in Microbiology, 2017)
The comparison behind a weaker result is the experiment's own reference, which may not be listed here.

Biological target: ArgR (Listeria monocytogenes 10403S) (UniProt A0A0H3GK31)
Assay: EMSA
Settings: 50 mM Tris-HCl pH 8.0, 250 mM NaCl, 5.0 mM MgCl2, 2.5 mM DTT, 2.5 mM EDTA, 20% glycerol, 200 ng DNA, 30 min at room temperature, native 5% PAGE in 0.5x TAE, recombinant protein, residues 1-149, protein details: N-terminal His (pET30a(+) fusion), label: none (ethidium bromide stain), probe letters rebuilt from the primers and the genome
[1] = stronger than sigB and arcA promoters
[2] = binds, weaker than argC and argG promoters

Sequence | binding result [1] | binding result [2]
ATATCGCGAATCTACGTCGGATAATGGTGACGTGTTTTTCACAAATTCCTGTGAAGCCTTATCTAAATTCTCAAGAACCTCAGGATTATAATCTTTTTTCCCAACCGCTTTTTTGTAAATAAAGAAAACGATTAATAATGGAAGTAGAATAATCCCAGCAAAACCGATAGCGATCCATTTTATTGTATTTTTCACATTCGCTCAACTCCTTCAATATAACTTCAATAACAAGTATAGCAGTTTTATGAACAGGAACCAATTTATTACTATTTGAAATGATTATTTTTATTTAGAAATGTATTTTTAAGCATAATTATGAATAAATGAAAATAAAAAGGTTGATATCTAAAAGCATCGATGTTAATATAAATACAAATGTTTGTATATTTATGAATAGGGGATGTTTAAAATGGCGAAAGAAAAAATCGTATTAGCTTACTCAGGTGGGTTAGATACTTCTGTGGCAATTCAGTGGTTAGTAGAATCAGGTTATGAAGTTATTGCATGTTGCTTGGATGTTGG (double strand) [argG promoter] | binds | –
AAATCGAGCATTACGAAAGCTTCACAGATTTCGATGCGCTAATTGCAAAAGCTTTAGATAACATCGAAACCATTTCTGTAAATGTAGCGGAAACTGCGCAAGTGAAAGATGAGTTCGCTGATTTATTTTAAGATTAACCGTTTATCCTAGAAAAGGATAAACGGTTTTTTGTATATTATATACATAATAAATAACTTAAAATGCATAAAATAGTTTTAAATATTAATAAAAAACCATTTGACATTATAAATATACATCATTATAATGAAAAGTATCATTTAATAATTAACGGGGAGGGGTTAGGATGAAAGTTTCAATCATTGGCGCGACGGGGTATGGAGGACTTGAGCTAATTCGCTTGCTTCATCAACACTCTTCGGTAGACATAGCGACGTTACATAGTTTTTCCGCTCAAGCAGAAACGTTAGCAACTTTTTATCCACATTTAAAAGATTTAGCAGTTAGCCC (double strand) [argC promoter] | binds | –
TTCCTTCTGCATCATTTTTAAATACGGTATATCATCAAATAATAAAGATTCTAGGTATTCTGGTGTGATATTTTCGAGTTCAGAACCCGGCCTCTTTACAAGAACTGTTTGGAGTTTGCCAATTTCAGATGTAATATTCAATGCTTGTTCCATTTTCATCACCTCTTCCTAACTAATTACCCCAAAAGTTTGTCATGTATGCGAGAGATTTCCCGGGAAATAAAAAAAAGCACAGAGATTATTCTGCGCTTTTCTTGTCCATTTTACTTTTAATAAATGAAACAACCATTGGGATAACGGAAACTACAATAATTCCGATTACTACTAACGAGAAGTTGTCTTTAACAATTGGGAAATTGCCGAAGAAGTATCCTGCAAGCGTGCAAAGCAATACCCAGACTGTTGCTCCTAAAATATTATAATTTAAGAAATAGCGATAATTCATACGGCTTGCTCCA (double strand) [arcA promoter] | – | binds more weakly
GATCAATTAGTTAAAATGCAAAACTTTGAGTTGCATGATGACTTTACGCTTATTTGTATTAAGCGAACTAAATAAGAAGAAGTGAAGACGTACCTCATTCTTTAGAGAGCATTTACTGGTGAGTAAACGTATTTAAAGAGTGGAGCGTTTTTATTTTTGAATGTTTTAATTTTATTAGTTAGGGTAAAATCGACAGTATACTTAAAATTAGATGGGGTGAAGTGATGAATATTAGTATAGAAATAAAAGAACGTGATACTGACCACATAGACATATTTGTTGCTGGGGAGATCGATGCTTATACAGCGCCAAAGGTAA (double strand) [sigB promoter] | – | binds more weakly
